This is an account of results in patent publication US20250115620A1, “BRIDGED TRICYCLIC CARBAMOYLPYRIDONE COMPOUNDS AND USES THEREOF” (Gilead Sciences, Inc., priority 2022, published 2025).

The subject of this series is pLAI reporter virus. In kind it is cell-based, HIV. Particulars: EC50 (50% HS)/EC50 (CCM).
With `CC1=NO[C@@]2(CC[C@H](CF)N3C[C@H]2n2cc(C(=O)NCc4ccc(F)cc4F)c(=O)c(O)c2C3=O)C1` [Example 155, (3′R,5S,7′R)—N-(2,4-difluorobenzyl)-3′-(fluoromethyl)-12′-hydroxy-3-methyl-1′,11′-dioxo-1′,4′,5′,11′-tetrahydro-3′H,4H,7′H-spiro[isoxazole-5,6′-[2,7]methanopyrido[1,2-a][1,4]diazonine]-10′-carboxamide], the “RLUC 50% HS Shift” value is given as 129×. Then `C[C@H]1CC[C@]2(CC(=O)NO2)[C@H]2CN1C(=O)c1c(O)c(=O)c(C(=O)NCc3ccc(F)cc3F)cn12` [Example 156, (3′S,5S,7′R)—N-(2,4-difluorobenzyl)-12′-hydroxy-3′-methyl-1′,3,11′-trioxo-1′,4′,5′,11′-tetrahydro-3′H,7′H-spiro[isoxazolidine-5,6′-[2,7]methanopyrido[1,2-a][1,4]diazonine]-10′-carboxamide], with 3×; and `CCN1O[C@@]2(CC[C@H](C)N3C[C@H]2n2cc(C(=O)NCc4c(F)cc(F)cc4F)c(=O)c(O)c2C3=O)CC1=O` [Example 157, (3′S,5S,7′R)-2-ethyl-12′-hydroxy-3′-methyl-1′,3,11′-trioxo-N-(2,4,6-trifluorobenzyl)-1′,4′,5′,11′-tetrahydro-3′H,7′H-spiro[isoxazolidine-5,6′-[2,7]methanopyrido[1,2-a][1,4]diazonine]-10′-carboxamide], with 12×; and `C[C@H]1CC[C@]2(CC(=O)N(Cc3ccc(Br)cc3)O2)[C@H]2CN1C(=O)c1c(O)c(=O)c(C(=O)NCc3c(F)cc(F)cc3F)cn12` [Example 158, (3′S,5S,7′R)-2-(4-bromobenzyl)-12′-hydroxy-3′-methyl-1′,3,11′-trioxo-N-(2,4,6-trifluorobenzyl)-1′,4′,5′,11′-tetrahydro-3′H,7′H-spiro[isoxazolidine-5,6′-[2,7]methanopyrido[1,2-a][1,4]diazonine]-10′-carboxamide], with 4×. Regarding `C[C@H]1CC[C@]2(CC(=O)N(Cc3ccccn3)O2)[C@H]2CN1C(=O)c1c(O)c(=O)c(C(=O)NCc3c(F)cc(F)cc3F)cn12` [Example 159, (3′S,5S,7′R)-12′-hydroxy-3′-methyl-1′,3,11′-trioxo-2-(pyridin-2-ylmethyl)-N-(2,4,6-trifluorobenzyl)-1′,4′,5′,11′-tetrahydro-3′H,7′H-spiro[isoxazolidine-5,6′-[2,7]methanopyrido[1,2-a][1,4]diazonine]-10′-carboxamide], the “RLUC 50% HS Shift” value is listed as 1×. Then `C[C@H]1CC[C@]2(CC(=O)N(Cc3cccnc3)O2)[C@H]2CN1C(=O)c1c(O)c(=O)c(C(=O)NCc3c(F)cc(F)cc3F)cn12` [Example 160, (3′S,5S,7′R)-12′-hydroxy-3′-methyl-1′,3,11′-trioxo-2-(pyridin-3-ylmethyl)-N-(2,4,6-trifluorobenzyl)-1′,4′,5′,11′-tetrahydro-3′H,7′H-spiro[isoxazolidine-5,6′-[2,7]methanopyrido[1,2-a][1,4]diazonine]-10′-carboxamide], with 0×; and `C[C@H]1CC[C@]2(CC(=O)N(Cc3nc4ccccc4s3)O2)[C@H]2CN1C(=O)c1c(O)c(=O)c(C(=O)NCc3c(F)cc(F)cc3F)cn12` [Example 161, (3′S,5S,7′R)-2-(benzo[d]thiazol-2-ylmethyl)-12′-hydroxy-3′-methyl-1′,3,11′-trioxo-N-(2,4,6-trifluorobenzyl)-1′,4′,5′,11′-tetrahydro-3′H,7′H-spiro[isoxazolidine-5,6′-[2,7]methanopyrido[1,2-a][1,4]diazonine]-10′-carboxamide], with 2×; and `C[C@H]1CC[C@]2(CC(=O)N(Cc3nc4ccccc4[nH]3)O2)[C@H]2CN1C(=O)c1c(O)c(=O)c(C(=O)NCc3c(F)cc(F)cc3F)cn12` [Example 162, (3′S,5S,7′R)-2-((1H-benzo[d]imidazol-2-yl)methyl)-12′-hydroxy-3′-methyl-1′,3,11′-trioxo-N-(2,4,6-trifluorobenzyl)-1′,4′,5′,11′-tetrahydro-3′H,7′H-spiro[isoxazolidine-5,6′-[2,7]methanopyrido[1,2-a][1,4]diazonine]-10′-carboxamide], with 4×. As for `C[C@H]1CC[C@]2(CC(=O)N(Cc3nc4ccccc4n3C)O2)[C@H]2CN1C(=O)c1c(O)c(=O)c(C(=O)NCc3c(F)cc(F)cc3F)cn12` [Example 163, (3′S,5S,7′R)-12′-hydroxy-3′-methyl-2-((1-methyl-1H-benzo[d]imidazol-2-yl)methyl)-1′,3,11′-trioxo-N-(2,4,6-trifluorobenzyl)-1′,4′,5′,11′-tetrahydro-3′H,7′H-spiro[isoxazolidine-5,6′-[2,7]methanopyrido[1,2-a][1,4]diazonine]-10′-carboxamide], the figure is 2×.

Take `C[C@H]1CC[C@]2(CO2)[C@H]2CN1C(=O)c1c(O)c(=O)c(C(=O)NCc3c(F)cc(F)cc3F)cn12` [Example 165, (2R,3′S,7′R)-12′-hydroxy-3′-methyl-1′,11′-dioxo-N-(2,4,6-trifluorobenzyl)-1′,4′,5′,11′-tetrahydro-3′H,7′H-spiro[oxirane-2,6′-[2,7]methanopyrido[1,2-a][1,4]diazonine]-10′-carboxamide]: the “RLUC 50% HS Shift” value is recorded as 19×.

On to `C[C@H]1CC[C@@]2(CO2)[C@H]2CN1C(=O)c1c(O)c(=O)c(C(=O)NCc3c(F)cc(F)cc3F)cn12` [Example 166, (2S,3′S,7′R)-12′-hydroxy-3′-methyl-1′,11′-dioxo-N-(2,4,6-trifluorobenzyl)-1′,4′,5′,11′-tetrahydro-3′H,7′H-spiro[oxirane-2,6′-[2,7]methanopyrido[1,2-a][1,4]diazonine]-10′-carboxamide], for which the “RLUC 50% HS Shift” value came out at 7×. With `COC[C@H]1CO[C@]2(CC[C@H](C)N3C[C@H]2n2cc(C(=O)NCc4c(F)cc(F)cc4F)c(=O)c(O)c2C3=O)O1` [Example 167, (2R,3′S,4S,7′R)-12′-hydroxy-4-(methoxymethyl)-3′-methyl-1′,11′-dioxo-N-(2,4,6-trifluorobenzyl)-1′,4′,5′,11′-tetrahydro-3′H,7′H-spiro[[1,3]dioxolane-2,6′-[2,7]methanopyrido[1,2-a][1,4]diazonine]-10′-carboxamide], the “RLUC 50% HS Shift” value turned out to be 15×. Consider `O=C(NCc1c(F)cc(F)cc1F)c1cn2c(c(O)c1=O)C(=O)N1CCCC[C@H]2C1` [Reference Compound A, reference compound], for which the “RLUC 50% HS Shift” value was found to be 6×. For the compound `O=C(NCc1ccc(F)cc1F)c1cn2c(c(O)c1=O)C(=O)N1CCCC[C@H]2C1` [Reference Compound B, reference compound], the “RLUC 50% HS Shift” value stood at 4×. As for `O=C(NCc1ccc(F)cc1F)c1cn2c(c(O)c1=O)C(=O)N1CCCC3(CC3)[C@H]2C1` [Reference Compound C, reference compound], the figure is 8×; as for `C[C@H]1CCC[C@H]2CN1C(=O)c1c(O)c(=O)c(C(=O)NCc3ccc(F)cc3F)cn12` [Reference Compound D, reference compound], 34×.
